Experimental data taken from patent publication US20250353853A1, “FLAVIVIRUS INHIBITORS” (IRBM S.P.A., priority 2022, published 2025).
Structures can show the parent of a compound that is named as a salt.

biological target: DEN2V NS2B-G4SG4-NS3 serine protease (Dengue virus type 2 (DENV-2), UniProt Q91H74); assay: DEN2V Protease Inhibition Assay

Row | Structure (SMILES) | IC50 [nM]
1 | O=C([N-]c1c[n+](Cc2ccccc2)no1)Nc1cccc(C(F)(F)F)c1 [Example 6, (3-Benzyl-1,2,3-oxadiazol-3-ium-5-yl)((3-(trifluoromethyl)phenyl)carbamoyl) amide] | 1000 to 20000
2 | Cc1ccccc1-c1ccc(C[n+]2cc([N-]C(=O)Nc3cccc(C(F)(F)F)c3)on2)cc1 [Example 21, (3-((2′-methyl-[1,1′-biphenyl]-4-yl)methyl)-1,2,3-oxadiazol-3-ium-5-yl)((3-(trifluoromethyl)phenyl)carbamoyl)amide] | 1000 to 20000
3 | O=C([N-]c1c[n+](Cc2ccc(-c3cccnc3)cc2)no1)Nc1cccc(C(F)(F)F)c1 [Example 22, (3-(4-(pyridin-3-yl)benzyl)-1,2,3-oxadiazol-3-ium-5-yl)((3-(trifluoromethyl)phenyl)carbamoyl)amide] | 1000 to 20000
4 | Cn1cc(-c2ccc(C[n+]3cc([N-]C(=O)Nc4cccc(C(F)(F)F)c4)on3)cc2)cn1 [Example 23, (3-(4-(1-methyl-1H-pyrazol-4-yl)benzyl)-1,2,3-oxadiazol-3-ium-5-yl)((3-(trifluoromethyl)phenyl)carbamoyl)amide] | 1000 to 20000
5 | O=C([N-]c1c[n+](Cc2ccc(-c3cncnc3)cc2)no1)Nc1cccc(C(F)(F)F)c1 [Example 26, (3-(4-(Pyrimidin-5-yl)benzyl)-1,2,3-oxadiazol-3-ium-5-yl)((3-(trifluoromethyl)phenyl)carbamoyl)amide] | 1000 to 20000
6 | Cc1nc(OCCN(C)C)ncc1-c1ccc(C[n+]2cc([N-]C(=O)Nc3cccc(C(F)(F)F)c3)on2)nc1 [Example 43, (3-((5-(2-(2-(dimethylamino)ethoxy)-4-methylpyrimidin-5-yl)pyridin-2-yl)methyl)-1,2,3-oxadiazol-3-ium-5-yl)((3-(trifluoromethyl)phenyl)carbamoyl)amide] | 1000 to 20000
7 | O=C([N-]c1c[n+](C(c2ccccc2)C(F)(F)F)no1)Nc1cccc(C(F)(F)F)c1 (stereo not drawn) [Example 44, (3-(2,2,2-trifluoro-1-phenylethyl)-1,2,3-oxadiazol-3-ium-5-yl)((3-(trifluoromethyl)phenyl)carbamoyl)amide] | 1000 to 20000
8 | O=C([N-]c1c[n+](Cc2cccc(Br)c2)no1)Nc1cccc(C(F)(F)F)c1 [Example 46, (3-(3-bromobenzyl)-1,2,3-oxadiazol-3-ium-5-yl)((3-(trifluoromethyl)phenyl)carbamoyl)amide] | 1000 to 20000
9 | O=C([N-]c1c[n+](Cc2ccc(I)cc2)no1)Nc1cccc(C(F)(F)F)c1 [Example 47, (3-(4-iodobenzyl)-1,2,3-oxadiazol-3-ium-5-yl)((3-(trifluoromethyl)phenyl)carbamoyl)amide] | 1000 to 20000
10 | O=C([N-]c1c[n+](Cc2ccc(-c3cnoc3)cc2)no1)Nc1cccc(C(F)(F)F)c1 [Example 48, (3-(4-(isoxazol-4-yl)benzyl)-1,2,3-oxadiazol-3-ium-5-yl)((3-(trifluoromethyl)phenyl)carbamoyl)amide] | 1000 to 20000
11 | O=C([N-]c1c[n+](Cc2cccc(-c3cncnc3)c2)no1)Nc1cccc(C(F)(F)F)c1 [Example 50, (3-(3-(Pyrimidin-5-yl)benzyl)-1,2,3-oxadiazol-3-ium-5-yl)((3-(trifluoromethyl)phenyl)carbamoyl)amide] | 1000 to 20000
12 | Cn1cc(-c2cccc(C[n+]3cc([N-]C(=O)Nc4cccc(C(F)(F)F)c4)on3)c2)cn1 [Example 52, (3-(3-(1-methyl-1H-pyrazol-4-yl)benzyl)-1,2,3-oxadiazol-3-ium-5-yl)((3-(trifluoromethyl)phenyl)carbamoyl)amide] | 1000 to 20000
13 | COc1ncc(-c2cccc(C[n+]3cc([N-]C(=O)Nc4cccc(C(F)(F)F)c4)on3)c2)cn1 [Example 53, (3-(3-(2-methoxypyrimidin-5-yl)benzyl)-1,2,3-oxadiazol-3-ium-5-yl)((3-(trifluoromethyl)phenyl)carbamoyl)amide] | 1000 to 20000
14 | O=C([N-]c1c[n+](Cc2ccc(I)cc2)no1)Nc1cncc(C(F)(F)F)c1 [Example 55, (3-(4-iodobenzyl)-1,2,3-oxadiazol-3-ium-5-yl)((5-(trifluoromethyl)pyridin-3-yl)carbamoyl)amide] | 1000 to 20000
15 | O=C([N-]c1c[n+](Cc2ccc(-c3ccc(CN4CCOCC4)cc3)cc2)no1)Nc1cccc(C(F)(F)F)c1 [Example 56, (3-((4′-(morpholinomethyl)-[1,1′-biphenyl]-4-yl)methyl)-1,2,3-oxadiazol-3-ium-5-yl)((3-(trifluoromethyl)phenyl)carbamoyl)amide] | 1000 to 20000
16 | O=C([N-]c1c[n+]([C@@H]2CCC[C@H]2c2ccccc2)no1)Nc1cccc(C(F)(F)F)c1 [Example 59, (3-((1R,2S)-2-phenylcyclopentyl)-1,2,3-oxadiazol-3-ium-5-yl)((3-(trifluoromethyl)phenyl)carbamoyl)amide] | 1000 to 20000
17 | Cc1ncncc1-c1ccc(C[n+]2cc([N-]C(=O)Nc3cccc(C(F)(F)F)c3)on2)cc1 [Example 60, (3-(4-(4-methylpyrimidin-5-yl)benzyl)-1,2,3-oxadiazol-3-ium-5-yl)((3-(trifluoromethyl)phenyl)carbamoyl)amide] | 1000 to 20000

Row | Structure (SMILES) | IC50 [nM]
18 | COc1ncncc1-c1ccc(C[n+]2cc([N-]C(=O)Nc3cccc(C(F)(F)F)c3)on2)cc1 [Example 62, (3-(4-(4-methoxypyrimidin-5-yl)benzyl)-1,2,3-oxadiazol-3-ium-5-yl)((3-(trifluoromethyl)phenyl)carbamoyl)amide] | 1000 to 20000
19 | O=C([N-]c1c[n+](Cc2ccc(-c3ccnc(O)c3)cc2)no1)Nc1cccc(C(F)(F)F)c1 [Example 64, (3-(4-(2-hydroxypyridin-4-yl)benzyl)-1,2,3-oxadiazol-3-ium-5-yl)((3-(trifluoromethyl)phenyl)carbamoyl)amide] | 1000 to 20000
20 | NC[C@H](Cc1ccc(-c2ccccc2)cc1)[n+]1cc([N-]C(=O)Nc2cccc(C(F)(F)F)c2)on1 [Example 65, (S)-(3-(1-([1,1′-biphenyl]-4-yl)-3-aminopropan-2-yl)-1,2,3-oxadiazol-3-ium-5-yl)((3-(trifluoromethyl)phenyl)carbamoyl)amide formate] | 1000 to 20000
21 | NC[C@@H](Cc1ccc(-c2ccccc2)cc1)[n+]1cc([N-]C(=O)Nc2cccc(C(F)(F)F)c2)on1 [Example 66, (R)-(3-(1-([1,1′-biphenyl]-4-yl)-3-aminopropan-2-yl)-1,2,3-oxadiazol-3-ium-5-yl)((3-(trifluoromethyl)phenyl)carbamoyl)amide] | 1000 to 20000
22 | C[C@H](c1ccc(-c2cncnc2)cc1)[n+]1cc([N-]C(=O)Nc2cccc(C(F)(F)F)c2)on1 [Example 72, (R)-(3-(1-(4-(pyrimidin-5-yl)phenyl)ethyl)-1,2,3-oxadiazol-3-ium-5-yl)((3-(trifluoromethyl)phenyl)carbamoyl)amide] | 1000 to 20000
23 | C[C@@H](c1ccc(-c2cncnc2)cc1)[n+]1cc([N-]C(=O)Nc2cccc(C(F)(F)F)c2)on1 [Example 74, (S)-(3-(1-(4-(pyrimidin-5-yl)phenyl)ethyl)-1,2,3-oxadiazol-3-ium-5-yl)((3-(trifluoromethyl)phenyl)carbamoyl)amide] | 1000 to 20000
24 | C[C@H](c1ccc(-c2cncnc2)cc1)[n+]1cc([N-]C(=O)Nc2cncc(C(F)(F)F)c2)on1 [Example 75, (R)-(3-(1-(4-(pyrimidin-5-yl)phenyl)ethyl)-1,2,3-oxadiazol-3-ium-5-yl)((5-(trifluoromethyl)pyridin-3-yl)carbamoyl)amide] | 1000 to 20000
25 | C[C@@H](c1ccc(-c2cncnc2)cc1)[n+]1cc([N-]C(=O)Nc2cncc(C(F)(F)F)c2)on1 [Example 77, (S)-(3-(1-(4-(pyrimidin-5-yl)phenyl)ethyl)-1,2,3-oxadiazol-3-ium-5-yl)((5-(trifluoromethyl)pyridin-3-yl)carbamoyl)amide] | 1000 to 20000
26 | Cc1noc(C)c1-c1ccc(C[n+]2cc([N-]C(=O)Nc3cccc(C(F)(F)F)c3)on2)cc1 [Example 78, (3-(4-(3,5-dimethylisoxazol-4-yl)benzyl)-1,2,3-oxadiazol-3-ium-5-yl)((3-(trifluoromethyl)phenyl)carbamoyl)amide] | 1000 to 20000
27 | Cc1ncncc1-c1ccc([C@H](C)[n+]2cc([N-]C(=O)Nc3cccc(C(F)(F)F)c3)on2)cc1 [Example 79, (S)-(3-(1-(4-(4-methylpyrimidin-5-yl)phenyl)ethyl)-1,2,3-oxadiazol-3-ium-5-yl)((3-(trifluoromethyl)phenyl)carbamoyl)amide] | 1000 to 20000
28 | Cc1ncnc(C)c1-c1ccc(C[n+]2cc([N-]C(=O)Nc3cccc(C(F)(F)F)c3)on2)cc1 [Example 81, (3-(4-(4,6-dimethylpyrimidin-5-yl)benzyl)-1,2,3-oxadiazol-3-ium-5-yl)((3-(trifluoromethyl)phenyl)carbamoyl)amide] | 100 to 1000
29 | Cc1ncncc1-c1ccc([C@@H](C)[n+]2cc([N-]C(=O)Nc3cccc(C(F)(F)F)c3)on2)cc1 [Example 82, (R)-(3-(1-(4-(4-methylpyrimidin-5-yl)phenyl)ethyl)-1,2,3-oxadiazol-3-ium-5-yl)((3-(trifluoromethyl)phenyl)carbamoyl)amide] | 1000 to 20000
30 | Cc1ncncc1-c1cccc(C[n+]2cc([N-]C(=O)Nc3cccc(C(F)(F)F)c3)on2)c1 [Example 83, (3-(3-(4-methylpyrimidin-5-yl)benzyl)-1,2,3-oxadiazol-3-ium-5-yl)((3-(trifluoromethyl)phenyl)carbamoyl)amide] | 1000 to 20000
31 | COc1ncncc1-c1cccc(C[n+]2cc([N-]C(=O)Nc3cccc(C(F)(F)F)c3)on2)c1 [Example 84, (3-(3-(4-methoxypyrimidin-5-yl)benzyl)-1,2,3-oxadiazol-3-ium-5-yl)((3-(trifluoromethyl)phenyl)carbamoyl)amide] | 1000 to 20000
32 | Cc1ccncc1-c1ccc(C[n+]2cc([N-]C(=O)Nc3cccc(C(F)(F)F)c3)on2)cc1 [Example 85, (3-(4-(4-methylpyridin-3-yl)benzyl)-1,2,3-oxadiazol-3-ium-5-yl)((3-(trifluoromethyl)phenyl)carbamoyl)amide] | 1000 to 20000
33 | Cc1nccnc1-c1ccc(C[n+]2cc([N-]C(=O)Nc3cccc(C(F)(F)F)c3)on2)cc1 [Example 86, (3-(4-(3-methylpyrazin-2-yl)benzyl)-1,2,3-oxadiazol-3-ium-5-yl)((3-(trifluoromethyl)phenyl)carbamoyl)amide] | 1000 to 20000
